Measurements reported in PubChem BioAssay AID624099 (ICCB-Longwood, 2012)
The whole screen tested about 21,000 reagents; this is a part drawn at random. 497 of all reagents (2.4%) were called active. 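Higher z means weaker E2 silencing; only reporter increases were scored, and knock-downs that hurt cell survival may mask genuine repressor factors.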

Aim: 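Host factors E2 relies on to silence an HPV18 LCR reporter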 (primary screen)
System: human C33A cervical carcinoma cells (HPV-negative) stably expressing BPV1 E2 and an HPV18 LCR luciferase reporter
Knock-down reagent: siRNA pool against human genes, 40 nM
Duration: 72 h
Measured: 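Per-well luciferase luminescence, z-scored on each plate against the plate mean and SD with control wells left out, then averaged across three replicate plates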
Direction: mean z-score and z-score: higher = stronger reporter signal, weaker E2 silencing
Hit rule: 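Mean z ≥ 2 together with z ≥ 2 in two or more of the three replicates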

| gene symbol | mean z-score | z-score, replicate A | z-score, replicate B | z-score, replicate C | activity call |
| --- | --- | --- | --- | --- | --- |
| LOC388929 (retired record) | -0.24 | -0.09 | -0.36 | -0.26 | inactive |
| ALOX15 (arachidonate 15-lipoxygenase) | -0.42 | -0.58 | -0.5 | -0.17 | inactive |
| PYGL (glycogen phosphorylase L) | 0.95 | 0.8 | 0.87 | 1.17 | inactive |
| RDX (radixin) | -0.94 | -1.07 | -1.33 | -0.43 | inactive |
| CD8B (CD8 subunit beta) | 0.68 | 0.59 | 0.74 | 0.7 | inactive |
| MRPL35 (mitochondrial ribosomal protein L35) | -0.01 | 0.21 | -0.33 | 0.1 | inactive |
| PABPC1P4 (poly(A) binding protein cytoplasmic 1 pseudogene 4) | -0.14 | -0.3 | -0.16 | 0.05 | inactive |
| MGME1 (mitochondrial genome maintenance exonuclease 1) | -0.08 | 0.2 | -0.34 | -0.1 | inactive |
| BOP1 (BOP1 ribosomal biogenesis factor) | -0.55 | -0.4 | -0.56 | -0.69 | inactive |
| PACSIN2 (protein kinase C and casein kinase substrate in neurons 2) | -0.96 | -0.93 | -0.87 | -1.08 | inactive |
| PRRX2 (paired related homeobox 2) | -0.47 | -0.67 | -0.54 | -0.18 | inactive |
| POU5F2 (POU domain class 5, transcription factor 2) | 1.59 | 1.68 | 1.52 | 1.57 | inactive |
| CEP250 (centrosomal protein 250) | 0.43 | -0.02 | 0.57 | 0.72 | inactive |
| IFNA7 (interferon alpha 7) | 0.02 | -0.04 | 0.13 | -0.03 | inactive |
| TBC1D22B (TBC1 domain family member 22B) | 0.09 | 0.08 | 0.27 | -0.07 | inactive |
| WHRN (whirlin) | -0.81 | -1.22 | -0.71 | -0.5 | inactive |
| EIF3FP3 | 0.57 | 0.2 | 0.68 | 0.82 | inactive |
| CYP4X1 (cytochrome P450 family 4 subfamily X member 1) | 0.07 | 0.02 | -0.26 | 0.46 | inactive |
| LOC387927 (retired record) | -0.25 | -0.56 | -0.05 | -0.13 | inactive |
| UTP18 (UTP18 small subunit processome component) | 0.45 | 0.04 | 0.79 | 0.52 | inactive |
| C2orf66 (chromosome 2 open reading frame 66) | -2.72 | -2.19 | -2.81 | -3.18 | inactive |
| ARHGAP26 (Rho GTPase activating protein 26) | -0.3 | -0.27 | -0.32 | -0.31 | inactive |
| LYPLA1 (lysophospholipase 1) | -0.61 | -0.52 | -0.46 | -0.84 | inactive |
| LTBP4 (latent transforming growth factor beta binding protein 4) | 0.77 | 0.61 | 0.9 | 0.79 | inactive |
| RESF1 (retroelement silencing factor 1) | 1.82 | 1.7 | 2.07 | 1.69 | inactive |
| LMO7 (LIM domain 7) | 1.49 | 1.56 | 1.4 | 1.5 | inactive |
| CLN3 (CLN3 lysosomal/endosomal transmembrane protein, battenin) | -0.56 | -0.54 | -0.74 | -0.39 | inactive |
| NKX2-5 (NK2 homeobox 5) | 0.42 | 0.33 | 0.5 | 0.42 | inactive |
| PPIL4 (peptidylprolyl isomerase like 4) | -0.88 | -0.94 | -0.82 | -0.88 | inactive |

Individual results from the list:
Entry of WHRN (whirlin) in “activity call”: inactive
LMO7 (LIM domain 7), mean z-score = 1.49
For “activity call”, C2orf66 (chromosome 2 open reading frame 66) is entered as inactive
Value of BOP1 (BOP1 ribosomal biogenesis factor) in “z-score, replicate C”: -0.69
MGME1 (mitochondrial genome maintenance exonuclease 1), z-score, replicate B = -0.34
Value for PYGL (glycogen phosphorylase L) under “z-score, replicate C”: 1.17

More entries follow.
| gene symbol | mean z-score | z-score, replicate A | z-score, replicate B | z-score, replicate C | activity call |
| --- | --- | --- | --- | --- | --- |
| MED9 (mediator complex subunit 9) | 0.33 | 0.62 | 0.47 | -0.1 | inactive |
| TSPAN5 (tetraspanin 5) | -0.29 | -0.15 | -0.47 | -0.23 | inactive |
| EFCAB11 (EF-hand calcium binding domain 11) | -0.65 | -0.71 | -0.95 | -0.28 | inactive |
| MMUT (methylmalonyl-CoA mutase) | -0.47 | -0.39 | -0.47 | -0.55 | inactive |
| PLEKHA3 (pleckstrin homology domain containing A3) | 0.21 | 0.07 | 0.23 | 0.34 | inactive |
| TNFSF12-TNFSF13 (TNFSF12-TNFSF13 readthrough) | -0.99 | -0.6 | -1.24 | -1.12 | inactive |
| VPS52 (VPS52 subunit of GARP complex) | -0.37 | 0.01 | -0.5 | -0.62 | inactive |
| CD80 (CD80 molecule) | 0.45 | 0.37 | 0.4 | 0.57 | inactive |
| HNRNPC (heterogeneous nuclear ribonucleoprotein C) | 0.73 | 0.48 | 1.04 | 0.66 | inactive |
| NFKBIA (NFKB inhibitor alpha) | 0.72 | 0.56 | 0.88 | 0.73 | inactive |
| DHX40 (DEAH-box helicase 40) | 0.79 | 0.89 | 0.54 | 0.95 | inactive |
| SNN (stannin) | -0.83 | -0.86 | -0.71 | -0.94 | inactive |
| LINC00115 (long independently transcribed non-coding RNA 115) | 0.48 | 0.94 | 0.43 | 0.06 | inactive |
| GRIA2 (glutamate ionotropic receptor AMPA type subunit 2) | -0.84 | -0.86 | -1.06 | -0.58 | inactive |
| BCOR (BCL6 corepressor) | 1.97 | 2.25 | 2.08 | 1.59 | inactive |
| SMCR8 (SMCR8-C9orf72 complex subunit) | 1.41 | 1.87 | 0.94 | 1.42 | inactive |
| GALNT6 (polypeptide N-acetylgalactosaminyltransferase 6) | -0.66 | -0.53 | -0.48 | -0.96 | inactive |
| RPP38 (ribonuclease P/MRP subunit p38) | -0.99 | -1.15 | -1.07 | -0.74 | inactive |
| MYCN (MYCN proto-oncogene, bHLH transcription factor) | -1.97 | -2.09 | -1.84 | -2 | inactive |
| CFAP298 (cilia and flagella associated protein 298) | 0.8 | 0.49 | 0.9 | 1.01 | inactive |
| MARCHF4 (membrane associated ring-CH-type finger 4) | -0.14 | 0.22 | -0.62 | -0.01 | inactive |
| LOC389742 (retired record) | 0.18 | 0.27 | 0.44 | -0.18 | inactive |
| SH2D1A (SH2 domain containing 1A) | -0.7 | -0.49 | -0.84 | -0.76 | inactive |
| MIR22HG (MIR22 host gene) | 0.8 | 0.65 | 0.91 | 0.83 | inactive |
| TENM4 (teneurin transmembrane protein 4) | -0.23 | -0.3 | -0.41 | 0.03 | inactive |
| TNRC6B (trinucleotide repeat containing adaptor 6B) | 0.75 | 0.94 | 0.55 | 0.75 | inactive |
| CACNA2D4 | -0.8 | -0.99 | -0.84 | -0.58 | inactive |
| PDP1 (pyruvate dehydrogenase phosphatase catalytic subunit 1) | 0.75 | 0.8 | 0.66 | 0.78 | inactive |
